## Single amino acid changes in Zika NS2B-NS3 and viral growth

Chain scanned (Zika virus MR766; NS2B from position 2 to 131, then the start of NS3):
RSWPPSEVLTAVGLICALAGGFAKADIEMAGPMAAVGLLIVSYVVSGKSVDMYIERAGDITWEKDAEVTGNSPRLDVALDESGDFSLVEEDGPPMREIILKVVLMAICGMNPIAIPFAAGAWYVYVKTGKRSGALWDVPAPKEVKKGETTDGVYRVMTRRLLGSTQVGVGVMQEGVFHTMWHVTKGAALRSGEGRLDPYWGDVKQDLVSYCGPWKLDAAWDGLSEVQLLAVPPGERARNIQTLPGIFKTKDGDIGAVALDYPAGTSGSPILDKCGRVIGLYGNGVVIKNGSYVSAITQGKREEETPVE

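Mutant virus pools were grown in human Huh-7.5 cells. Deep sequencing gave the change in frequency of each mutant relative to wild type, averaged over three replicate libraries (two for positions 207-308). The study looked for pockets that tolerate few changes, as a guide for inhibitor design.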

Scale: log2 effect, wild type = 0; the lower, the more harmful to the virus. Substitutions are written as wild-type residue, site number, new residue. Six mutants with high scores were retested singly and none clearly outgrew wild type, so positive values are not proof of better growth.

| change | log2 growth effect |
|---|---|
| R1Y | -7.03 |
| S2* | -8.73 |
| S2I | -6.51 |
| L9M | -0.66 |
| I15* | -8.07 |
| F22G | -4.36 |
| F22H | -5.71 |
| D26Q | -2.08 |
| G31D | -6.19 |
| A35L | -7.24 |
| I40G | -0.65 |
| I40Q | -4.70 |
| K48N | -3.62 |
| V50Q | -5.01 |
| V50T | -0.34 |
| V50Y | -5.98 |
| A57H | -1.36 |
| A57W | -5.08 |
| E67A | -5.54 |
| N71H | -5.26 |
| N71Y | -5.51 |
| D76S | -0.18 |
| D76T | -0.45 |
| V77E | -6.57 |
| E81K | -4.85 |
| S82H | 0.65 |
| D84Y | -2.93 |
| F85W | -0.93 |
| L87H | -6.34 |
| E90C | 0.00 |
| P94T | -2.76 |
| P94V | -2.30 |
| I98S | -5.41 |
| I99E | -5.27 |
| V102K | -6.50 |
| V103E | -5.23 |
| L104H | -6.00 |
| M105L | -6.32 |
| I107A | -1.53 |
| C108E | -5.63 |
| A121H | -5.36 |
| A121L | -1.32 |
| A121M | -1.27 |
| W122E | -5.14 |
| Y123* | -6.59 |
| G129A | -6.93 |
| R131T | -7.45 |
| G133Y | -5.40 |
| L135Q | -6.97 |
| P139N | -5.10 |
| A140H | -4.83 |
| V144H | -1.13 |
| K146W | -4.32 |
| G147N | -5.22 |
| G147P | -1.15 |
| V153Q | -5.58 |
| R155Q | -6.08 |
| M157Y | -1.29 |
| T158F | -4.74 |
| T158H | -4.35 |
| R160G | -2.61 |
| G163* | -6.99 |
| G163C | -1.96 |
| G163N | -4.78 |
| S164T | -0.30 |
| T165W | -0.42 |
| Q166* | -6.86 |
| V167F | -5.61 |
| G168K | -5.00 |
| F177W | -5.43 |
| G186A | -2.44 |
| A188W | -4.70 |
| L189V | -2.16 |
| G192N | -3.40 |
| G194L | -7.27 |
| L196G | -6.12 |
| D197L | -7.15 |
| P198T | -2.39 |
| Y199W | -1.07 |
| D202L | -6.84 |
| V203F | -6.24 |
| Q205C | -6.24 |
| Q205F | -6.70 |
| Q205V | -5.15 |
| L207K | -7.34 |
| S209M | -6.25 |
| L216H | -6.42 |
| V226T | -6.26 |
| L229H | -0.34 |
| P232M | -1.05 |
| E235G | -0.66 |
| N239A | -3.70 |
| N239I | -5.85 |
| F247R | -7.28 |
| K248S | -1.19 |
| D253L | -6.73 |
| V257K | -3.91 |
| V257Y | -4.57 |
| A258N | -5.26 |
| L259G | -5.34 |
| G267K | -4.94 |
| S268P | -5.12 |
| D272Y | -3.84 |
| K273M | -2.47 |
| C274E | -4.12 |
| C274F | -0.38 |
| V277N | -3.54 |
| V277Q | -4.85 |
| L280Y | -5.37 |
| G282H | -3.86 |
| G282I | -4.51 |
| V285G | -5.98 |
| I287G | 0.08 |
| V293D | -5.04 |
| A295Y | -4.25 |
| T297W | -4.69 |
| G299I | -4.76 |
| T305S | 0.20 |

6 of these entries, quoted again:

{"change": "V167F", "log2 growth effect": -5.61}
{"change": "Y199W", "log2 growth effect": -1.07}
{"change": "D197L", "log2 growth effect": -7.15}
{"change": "F177W", "log2 growth effect": -5.43}
{"change": "V103E", "log2 growth effect": -5.23}
{"change": "F247R", "log2 growth effect": -7.28}

Positions 1-103, 104-206 and 207-308 were made and measured as separate libraries. An asterisk is a stop codon; stop codons read about -7, near the floor of the assay. The authors count -1 or higher as tolerated. Position 1 is the last residue of NS2A.

Reference: Ni et al. 2025, doi:10.1038/s41467-025-63602-z.